{"source": "patent US20260382604A1", "about": "“Inhibitors of Type 1 Methionyl-tRNA Synthetase and Methods of Using Them” (published 2026)", "key": {"[1]": {"system": "S. aureus", "assay": "Serum shift MIC, S. aureus", "conditions": "serum shift procedure, with serum (50% human serum)", "excerpt": "(§1) Media and culture conditions. Mueller Hinton broth (MHB), cation adjusted Mueller Hinton broth (CA-MHB), Todd Hewitt Broth (THB) and Brain Heart Infusion broth (BHI) were purchased from Becton Dickinson (Franklin Lakes, NJ). Tryptic soy agar (TSA) plates and TSA with 5% sheep blood plates were purchased from Remel (San Diego, CA). MHB was used to assay all Staphylococcus aureus strains. CA-MHB was used for Staphylococcus epidermidis, Enterococcus faecalis, Enterococcus faecium, Escherichia coil, and Pseudomonas aeruginosa. THB broth supplemented with 1% yeast extract was used for Streptococcus pneumoniae and Streptococcus pyogenes. Staphylococcus. Enterococcus, Escherichia, and Pseudomonas strains were cultured at 37 °C with ambient air. Streptococcus strains were cultured in 37 °C with 5% CO2. Separate conditions for radiolabeled precursor uptake assays are described below.\n(§2) Susceptibility testing: Minimum inhibitory concentration (MIC) determinations are performed in triplicate in 96-well round bottom microtiter plates (Corning, Corning NY) as described by the Clinical and Laboratory Standards Institute (CLSI). Serial two-fold dilutions of compounds are added to plates in 50 μL volumes. An additional 50 μL of media containing bacterial cells (1×10^6 CFUs/mL) is then added to each well. Maximum DMSO concentrations are 0.5%. Plates are incubated at 37 °C for at least 18 h before reading the susceptibility result by optical absorbance (OD600) using a BioTek ELx800. The lowest concentration causing ≥90% growth inhibition compared to the untreated control is recorded as the MIC (and also corresponded to the visual MIC). MICs are measured at least twice and the higher value (if different) is recorded herein.\nSerum shift assays: To assess the role of protein binding on compound susceptibility, MIC determinations are performed in triplicate in the presence and absence of 50% human serum. Serial threefold dilutions of 2× compound are generated in MHB or THY (depending on organism) and aliquoted onto 96 well plates with a DMSO limit of 0.5%. Bacteria are adjusted to 1*10^8 CFUs/mL in media, then further diluted 1:100 in media and 100% heat deactivated filter sterilized pooled human serum. Fifty microliters are added to each well of the corresponding plates, and the plates are incubated at 37 °C for ~20 h. The lowest concentration causing ≥90% growth inhibition is recorded as the MIC."}, "[2]": {"system": "MRSA", "assay": "Susceptibility testing (MIC), MRSA", "excerpt": "as §1, §2"}, "[3]": {"system": "S. aureus", "assay": "Susceptibility testing (MIC), S. aureus", "conditions": "ATCC29213", "excerpt": "as §1, §2"}, "[4]": {"system": "S. pyogenes", "assay": "Susceptibility testing (MIC), S. pyogenes", "conditions": "ATCC19615", "excerpt": "as §1, §2"}, "[5]": {"system": "T. cruzi", "assay": "T. cruzi growth inhibition assay", "procedure": "Trypanosoma crud growth inhibition assay: The Tulahuen strain of T. cruzi that expresses the Escherichia coli 3-galactosidase gene was utilized (PMID: 8913471). Mammalian stages of parasites were grown at 37 °C on monolayers of murine 3T3 fibroblasts in RPMI 1640 (Biowhittaker Inc., Walkersville, Md.) with 10% fetal bovine serum, penicillin, streptomycin, and glutamine. Growth inhibition assays were performed in 96-well tissue culture plates (Costar, Cambridge, Mass.). First, 3T3 fibroblasts were inoculated at 103/well using RPMI 1640 without phenol red (Biowhittaker Inc.) plus 10% fetal bovine serum and glutamine. The next day, the plates were infected with T. cruzi trypomastigotes at 104/well. After 4 h, drugs were added in serial dilutions to give a final volume of 200 μl/well. The plates were incubated at 37 °C in 5% CO2 atmosphere for 6 days. At this time. CPRG (100 μM final) and Nonidet P-40 (0.1% final) (Sigma Chemical Co., St. Louis, Mo.) were added and the plates were incubated at 37 °C for approximately 4 h. Wells with 0-galactosidase activity turned the media from yellow to red, and this was quantified on an enzyme-linked immunosorbent assay reader at A570."}, "[6]": {"system": "T. brucei", "assay": "Trypanosoma brucei growth inhibition assay", "conditions": "read-out: T. brucei EC50; in vitro growth inhibition", "procedure": "Trypanosoma brucei growth inhibition assay: Compounds are tested for anti-trypanosomal activity against Trypanosoma brucei cells (BSF 427 parasites) in HMI-9 media containing 10% heat inactivated FBS 100 U mL^−1 penicillin/100 μg mL^−1 streptomycin at 37 °C with 5% CO2. Test compounds are assayed in a 96-well format in triplicate with serial 3-fold dilutions of compound or a pentamidine control against an initial inoculum of 10 000 cells/well and quantified at 48 hours with Alamar Blue (Invitrogen, Waltham, MA)."}, "[7]": {"system": "T. cruzi", "assay": "In vivo acute T. cruzi infection model", "conditions": "for Log decrease from vehicle: PO, dose 50, 2 times/day, 5 days of treatment", "procedure": "In vivo acute T crud infection model. Swiss Webster mice were infected with 2×10^4 Trypanosoma cruzi trypomastigotes expressing a red-shifted luciferase gene IP on day zero (M. D. Lewis et al. J Biomol Screen 2015; 20(1):36-43). Mice were dosed orally with the test compounds, vehicle, or the control drug (benznidazole) for 5 days (days 7-11 post-infection). The parasites were imaged and quantified using an IVIS imaging system at multiple time points. The substrate D-luciferin potassium salt was injected SC at 150 mg/kg into mice, followed by imaging 10-15 minutes post injection. Images were taken for each set of mice both dorsally and ventrally. Auto-exposure settings are used with a maximum exposure time set to 5 minutes. The signal from these images is combined and standardized by converting the readouts to radiance (photons/sec/cm^2/sr). The decrease in luminescence compared to vehicle control was quantified on day 13 post-infection."}, "[8]": {"conditions": "read-out: T. cruzi EC50, in vitro growth inhibition (Table 4)"}, "[9]": {"conditions": "read-out: In Vitro EC50, anti-T. cruzi activity in vitro (Table 3)"}}, "note": "Values joined by “and” are separate entries in the source; they are usually repeats but may differ in a detail not shown here. Equal values may be shown once. Read-outs that look alike come from different tables or passages of the source.", "data": [{"smiles": "COc1ccc(-c2cccc3nn(Cc4nc5nc(Cl)ccc5[nH]4)cc23)c(Cl)c1", "values": [{"measurement": "S. aureus MIC w Serum", "setting": "[1]", "value": 16, "unit": "µg/mL"}]}, {"smiles": "COc1cc(Cl)c(-c2cnc(N3CCN(C(=O)CO)CC3)c3nn(Cc4nc5nc(Cl)ccc5[nH]4)cc23)cc1OC", "values": [{"measurement": "MRSA (ATCC33591) MIC", "setting": "[2]", "value": 0.216, "unit": "µg/mL"}, {"measurement": "S. aureus (ATCC29213) MIC", "setting": "[3]", "value": 0.328, "unit": "µg/mL"}, {"measurement": "S. pyogenes (ATCC19615) MIC", "setting": "[4]", "value": 0.207, "unit": "µg/mL"}, {"measurement": "EC50", "setting": "[5]; [8]", "value": 787, "unit": "nM"}]}, {"smiles": "COc1cc(Cl)c(-c2cnc(NCCO)c3nn(Cc4nc5nc(Cl)ccc5[nH]4)cc23)cc1OC", "values": [{"measurement": "MRSA (ATCC33591) MIC", "setting": "[2]", "value": 1.09, "unit": "µg/mL"}, {"measurement": "S. aureus (ATCC29213) MIC", "setting": "[3]", "value": 1.16, "unit": "µg/mL"}, {"measurement": "S. pyogenes (ATCC19615) MIC", "setting": "[4]", "value": 1.04, "unit": "µg/mL"}, {"measurement": "EC50", "setting": "[6]", "value": "25.9 nM and 23.6 nM"}]}, {"smiles": "COc1cc(Cl)c(-c2c(F)nc(-c3cnn(C)c3)c3nc(Cc4nc5nc(Cl)ccc5[nH]4)cn23)cc1OC", "values": [{"measurement": "EC50", "setting": "[5]; [9]", "value": 6.1, "unit": "nM"}, {"measurement": "Log decrease from vehicle", "setting": "[7]", "value": 3.01}, {"measurement": "in vivo efficacy (in words)", "setting": "[7]; compared to non-fluorinated analogs such as 2503 and 2602", "value": "useful in vivo efficacy"}]}, {"smiles": "COc1cc(Cl)c(-c2c(Cl)ncc3nn(Cc4nc5ccc(Cl)nc5[nH]4)cc23)cc1OC", "values": [{"measurement": "MRSA (ATCC33591) MIC", "setting": "[2]", "value": 0.504, "unit": "µg/mL"}, {"measurement": "S. aureus (ATCC29213) MIC", "setting": "[3]", "value": 0.314, "unit": "µg/mL"}, {"measurement": "S. pyogenes (ATCC19615) MIC", "setting": "[4]", "value": 1.82, "unit": "µg/mL"}, {"measurement": "EC50", "setting": "[6]", "value": 18, "unit": "nM"}]}, {"smiles": "COc1ccc(-c2ccc(NC(C)=O)c3c2CN(Cc2nc4nc(Cl)ccc4[nH]2)C3=O)c(Cl)c1", "values": [{"measurement": "EC50", "setting": "[5]; [9]", "value": 8, "unit": "nM"}, {"measurement": "Log decrease from vehicle", "setting": "[7]", "value": 0.37}]}, {"smiles": "COc1ccc(-c2ccc(OC)c3c2CN(Cc2nc4nc(Cl)ccc4[nH]2)C3=O)c(Cl)c1", "values": [{"measurement": "EC50", "setting": "[5]; [9]", "value": 5, "unit": "nM"}, {"measurement": "Log decrease from vehicle", "setting": "[7]", "value": 0.46}]}, {"smiles": "COc1cc(Cl)c(-c2cnc(N3CCC(CO)CC3)c3nn(Cc4nc5nc(Cl)ccc5[nH]4)cc23)cc1OC", "values": [{"measurement": "MRSA (ATCC33591) MIC", "setting": "[2]", "value": 0.576, "unit": "µg/mL"}, {"measurement": "S. aureus (ATCC29213) MIC", "setting": "[3]", "value": 0.229, "unit": "µg/mL"}, {"measurement": "S. pyogenes (ATCC19615) MIC", "setting": "[4]", "value": 0.705, "unit": "µg/mL"}, {"measurement": "EC50", "setting": "[5]; [8]", "value": 441, "unit": "nM"}]}, {"smiles": "COc1cc(Cl)c(-c2cnc(Cl)c3nn(Cc4nc5nc(Cl)ccc5[nH]4)cc23)cc1OC", "values": [{"measurement": "MRSA (ATCC33591) MIC", "setting": "[2]", "value": 0.0415, "unit": "µg/mL"}, {"measurement": "S. pyogenes (ATCC19615) MIC", "setting": "[4]", "value": 0.499, "unit": "µg/mL"}, {"measurement": "EC50", "setting": "[6]", "value": "25.9 nM and 14.8 nM and 13.2 nM"}]}, {"smiles": "COc1cc(Cl)c(-c2cnc(OCCO)c3nn(Cc4nc5nc(Cl)ccc5[nH]4)cc23)cc1OC", "values": [{"measurement": "MRSA (ATCC33591) MIC", "setting": "[2]", "value": 0.216, "unit": "µg/mL"}, {"measurement": "S. aureus (ATCC29213) MIC", "setting": "[3]", "value": 0.214, "unit": "µg/mL"}, {"measurement": "S. pyogenes (ATCC19615) MIC", "setting": "[4]", "value": 0.225, "unit": "µg/mL"}, {"measurement": "EC50", "setting": "[5]; [8]", "value": 523, "unit": "nM"}]}, {"smiles": "COc1cc(Cl)c(-c2cnc(-c3cnn(C)c3)c3nc(Cc4nc5nc(Cl)ccc5[nH]4)cn23)cc1OC", "values": [{"measurement": "EC50", "setting": "[5]; [9]", "value": 3.5, "unit": "nM"}, {"measurement": "Log decrease from vehicle", "setting": "[7]", "value": 2.48}]}, {"smiles": "COc1cc(Cl)c(-c2cnc(N3CCN(S(N)(=O)=O)CC3)c3nn(Cc4nc5nc(Cl)ccc5[nH]4)cc23)cc1OC", "values": [{"measurement": "MRSA (ATCC33591) MIC", "setting": "[2]", "value": 0.441, "unit": "µg/mL"}, {"measurement": "S. aureus (ATCC29213) MIC", "setting": "[3]", "value": 0.699, "unit": "µg/mL"}, {"measurement": "S. pyogenes (ATCC19615) MIC", "setting": "[4]", "value": 0.276, "unit": "µg/mL"}, {"measurement": "EC50", "setting": "[5]; [8]", "value": "> 1000", "unit": "nM"}]}, {"smiles": "COc1cc(Cl)c(-c2cnc(N3CCN(C(=O)COC(C)=O)CC3)c3nn(Cc4nc5nc(Cl)ccc5[nH]4)cc23)cc1OC", "values": [{"measurement": "MRSA (ATCC33591) MIC", "setting": "[2]", "value": 0.545, "unit": "µg/mL"}, {"measurement": "S. aureus (ATCC29213) MIC", "setting": "[3]", "value": 0.286, "unit": "µg/mL"}, {"measurement": "S. pyogenes (ATCC19615) MIC", "setting": "[4]", "value": 0.201, "unit": "µg/mL"}, {"measurement": "EC50", "setting": "[5]; [8]", "value": 779, "unit": "nM"}]}]}
